Results on one compound are retold here after PubChem BioAssay AID547 (Emory University Molecular Libraries Screening Center, 2006).

The list shows a part of the results, in another mix than the full data. Active and inactive are the calls of the source. No rule for the calls is given here.

This assay deals with Chaperone protein DnaK (Escherichia coli (strain K12)) (UniProt P0A6Y8). Briefly: E. coli DnaK chaperone inhibitors, primary screen, luminescence, E. coli K12 (AID 547).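 Also: tested at 10 µM.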 The note with it: DnaK chaperone assay, luminescence read-out; stronger effect = lower value.
Consider `N#[O+].[C-]#N.[C-]#N.[C-]#N.[C-]#N.[C-]#N.[Fe+2].[Na+].[Na+]`, for which the luminescence is inactive: 2.7e+06 cps.
